# Measured values from US20090281028A1.
# Where a chain is given by its changes, count along the chain named.
# T1: human Kv1.1 channel (human), Q09470
# T1 chain: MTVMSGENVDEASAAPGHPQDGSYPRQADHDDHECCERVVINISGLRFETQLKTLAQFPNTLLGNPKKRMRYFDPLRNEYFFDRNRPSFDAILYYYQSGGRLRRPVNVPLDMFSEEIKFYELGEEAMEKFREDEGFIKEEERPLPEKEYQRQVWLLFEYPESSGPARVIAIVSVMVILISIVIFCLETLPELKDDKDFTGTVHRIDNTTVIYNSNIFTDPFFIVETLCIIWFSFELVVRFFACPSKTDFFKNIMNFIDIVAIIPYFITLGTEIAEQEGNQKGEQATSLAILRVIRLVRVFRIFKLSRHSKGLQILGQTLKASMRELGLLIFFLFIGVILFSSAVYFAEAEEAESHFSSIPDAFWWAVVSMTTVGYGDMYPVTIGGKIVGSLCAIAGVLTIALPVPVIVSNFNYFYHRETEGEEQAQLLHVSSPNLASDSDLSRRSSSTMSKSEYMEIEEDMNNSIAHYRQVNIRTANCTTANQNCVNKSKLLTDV
# B1: OSK1 K7R (peptide)
# peptide: GVIINVRCKISRQCLEPCKKAGMRFGKCMNGKCHCTPK
# modifications: not checked
# B2: OSK1 K9R (peptide)
# peptide: B1 peptide with R7K, K9R
# modifications: not checked
# B3: OSK1 I10R (peptide)
# peptide: B1 peptide with R7K, I10R
# modifications: not checked
# B4: OSK1 S11R (peptide)
# peptide: B1 peptide with R7K, S11R
# modifications: not checked
# B5: OSK1 Q13R (peptide)
# peptide: B1 peptide with R7K, Q13R
# modifications: not checked
# B6: OSK1 L15R (peptide)
# peptide: B1 peptide with R7K, L15R
# modifications: not checked
# B7: OSK1 E16R (peptide)
# peptide: B1 peptide with R7K, E16R
# modifications: not checked
# B8: OSK1 P17R (peptide)
# peptide: B1 peptide with R7K, P17R
# modifications: not checked
# B9: OSK1 K19R (peptide)
# peptide: B1 peptide with R7K, K19R
# modifications: not checked
# B10: OSK1 K20R (peptide)
# peptide: B1 peptide with R7K, K20R
# modifications: not checked
# B11: OSK1 A21R (peptide)
# peptide: B1 peptide with R7K, A21R
# modifications: not checked
# B12: OSK1 G22R (peptide)
# peptide: B1 peptide with R7K, G22R
# modifications: not checked
# B13: OSK1 M23R (peptide)
# peptide: B1 peptide with R7K, M23R
# modifications: not checked
# B14: OSK1 F25R (peptide)
# peptide: B1 peptide with R7K, F25R
# modifications: not checked
# B15: OSK1 G26R (peptide)
# peptide: B1 peptide with R7K, G26R
# modifications: not checked
# B16: OSK1 K27R (peptide)
# peptide: B1 peptide with R7K, K27R
# modifications: not checked
# B17: OSK1 M29R (peptide)
# peptide: B1 peptide with R7K, M29R
# modifications: not checked
# B18: OSK1 N30R (peptide)
# peptide: B1 peptide with R7K, N30R
# modifications: not checked
# B19: OSK1 G31R (peptide)
# peptide: B1 peptide with R7K, G31R
# modifications: not checked
# B20: OSK1 K32R (peptide)
# peptide: B1 peptide with R7K, K32R
# modifications: not checked
# B21: OSK1 H34R (peptide)
# peptide: B1 peptide with R7K, H34R
# modifications: not checked
# B22: OSK1 T36R (peptide)
# peptide: B1 peptide with R7K, T36R
# modifications: not checked
# B23: OSK1 P37R (peptide)
# peptide: B1 peptide with R7K, P37R
# modifications: not checked
# B24: OSK1 K38R (peptide)
# peptide: B1 peptide with R7K, K38R
# modifications: not checked
# B25: OSK1 G1E (peptide)
# peptide: B1 peptide with G1E, R7K
# modifications: not checked
# B26: OSK1 V2E (peptide)
# peptide: B1 peptide with V2E, R7K
# modifications: not checked
# B27: OSK1 I3E (peptide)
# peptide: B1 peptide with I3E, R7K
# modifications: not checked
# B28: OSK1 I4E (peptide)
# peptide: B1 peptide with I4E, R7K
# modifications: not checked
# B29: OSK1 N5E (peptide)
# peptide: B1 peptide with N5E, R7K
# modifications: not checked
# B30: OSK1 V6E (peptide)
# peptide: B1 peptide with V6E, R7K
# modifications: not checked
# B31: OSK1 K7E (peptide)
# peptide: B1 peptide with R7E
# modifications: not checked
# B32: OSK1 K9E (peptide)
# peptide: B1 peptide with R7K, K9E
# modifications: not checked
# B33: OSK1 I10E (peptide)
# peptide: B1 peptide with R7K, I10E
# modifications: not checked
# Target: human Kv1.3 channel (human), P22001
# Experiment: cell-based or functional assay
Binder,Kv1.3 IC50 (IonWorks electrophysiology),WB/IFNg IC50 (human whole blood),WB/IL-2 IC50 (human whole blood)
B1,13.2 pM,0.071 nM,0.078 nM
B2,12 pM,0.077 nM,0.107 nM
B3,11.7 pM,0.474 nM,0.307 nM
B4,16.7 pM,4.07 nM,2.12 nM
B5,15.3 pM,0.172 nM,0.16 nM
B6,13.7 pM,0.116 nM,0.093 nM
B7,10.4 pM,0.454 nM,0.556 nM
B8,10.4 pM,0.355 nM,0.202 nM
B9,12.6 pM,0.062 nM,0.044 nM
B10,9.85 pM,0.083 nM,0.067 nM
B11,14.9 pM,0.149 nM,0.09 nM
B12,23.7 pM,0.349 nM,0.292 nM
B13,12.3 pM,0.148 nM,0.182 nM
B14,> 3330 pM,31 nM,25 nM
B15,> 3330 pM,100 nM,–
B16,1490 pM,10.7 nM,15.1 nM
B17,200 pM,7.68 nM,11.7 nM

Binder,Kv1.3 IC50 (IonWorks electrophysiology),WB/IFNg IC50 (human whole blood),WB/IL-2 IC50 (human whole blood)
B18,18.9 pM,0.445 nM,0.405 nM
B19,22.2 pM,0.343 nM,0.314 nM
B20,30.8 pM,0.034 nM,0.028 nM
B21,13.6 pM,0.108 nM,0.092 nM
B22,1310 pM,10.1 nM,9.7 nM
B23,13.3 pM,0.253 nM,0.229 nM
B24,15 pM,0.04 nM,0.039 nM
B25,186 pM,1.25 nM,1.22 nM
B26,36.2 pM,0.184 nM,0.097 nM
B27,22 pM,0.16 nM,0.12 nM
B28,15.7 pM,0.191 nM,0.218 nM
B29,23.4 pM,0.065 nM,0.1 nM
B30,17.7 pM,0.068 nM,0.048 nM
B31,14.2 pM,0.068 nM,0.058 nM
B32,31.8 pM,0.171 nM,0.179 nM
B33,120 pM,2.74 nM,2.57 nM

# Target: T1, human Kv1.1 channel (human), Q09470
# Experiment: cell-based or functional assay
row,Binder,Kv1.1 IC50 (IonWorks electrophysiology)
1,B1,< 1.52 pM
2,B2,2.01 pM
3,B3,1.73 pM
4,B4,210 pM
5,B5,< 1.52 pM
6,B6,2.16 pM
7,B7,< 1.52 pM
8,B8,< 1.52 pM
9,B9,2.41 pM
10,B10,< 1.52 pM
11,B11,2.61 pM
12,B12,3.49 pM
13,B13,2.01 pM
14,B14,817 pM
15,B15,> 3330 pM
16,B16,> 3330 pM
17,B17,1870 pM

row,Binder,Kv1.1 IC50 (IonWorks electrophysiology)
1,B18,45.7 pM
2,B19,1.59 pM
3,B20,7.24 pM
4,B21,4.49 pM
5,B22,26.6 pM
6,B23,2.01 pM
7,B24,1.84 pM
8,B25,51 pM
9,B26,35 pM
10,B27,43 pM
11,B28,3.19 pM
12,B29,4.44 pM
13,B30,2.43 pM
14,B31,< 1.52 pM
15,B32,111 pM
16,B33,33.5 pM
